Anti-infective test results gathered from many reports (values: NIAID ChemDB through PubChem).

Shared fields: toxicity to cultured cells; cells: CEM; endpoint: CC50

CCn is the concentration with n% toxicity to the cells. Conditions beyond the fields shown may differ between rows.

structure,result
Cc1cn([C@H]2C[C@H](F)[C@@H](CO)O2)c(=O)[nH]c1=O,54 µM
Nc1nc(=O)n([C@@H]2CS[C@H](CO)O2)cc1F,>100 µM
CC(C)(C)[Si](C)(C)OC[C@H]1O[C@@H](n2cnc3c(=O)n(CC(=O)O)cnc32)[C@H](O[Si](C)(C)C(C)(C)C)[C@@H]1O,≥250 µM
C=CCOC(=O)CCC,500 µM
CCCCOCCCCCCCCC(=O)O,228 µM
Cc1cc(C=O)cc2c1OP(=O)(OC[C@@H]1C=C[C@H](n3cc(C)c(=O)[nH]c3=O)O1)OC2,86 µM
CCCCCCCCCCOCCC(=O)O,80 µM
CO[C@@H]1N([C@H]2C[C@H](F)[C@@H](CO)O2)C(=O)NC(=O)[C@@]1(C)Br,9.72 µM
Cc1cc(S(=O)(=O)Nc2nc(Nc3ccccc3)nn2C)c(S)cc1Cl,149 µM
CC(C)(C)[Si](C)(C)OC[C@H]1O[C@@H](n2ccc(=O)n(CC(=O)O)c2=O)[C@H](O)[C@@H]1O[Si](C)(C)C(C)(C)C,63 µM
O=S(=O)(Nc1nnc2c3ccccc3cnn12)c1ccc(Cl)cc1S,>200 µM
COCCCCCCCCCCCC(=O)O,88 µM
Cc1ccc(Nc2nc(NS(=O)(=O)c3cc(C)c(Cl)cc3S)n(C)n2)cc1,100 µM
C=CCOC(=O)CCCCC,240 µM
COC(=O)[C@H](C)N[P@@](=O)(OC[C@@H]1C=C[C@H](n2cc(C)c(=O)[nH]c2=O)O1)Oc1ccccc1C,>250 µM
CC(n1cnc2c(N)ncnc21)C1(COCP(=O)(O)O)CC1,98 µM
Nc1ccn([C@H]2C=C[C@@H](CO)O2)c(=O)n1,22 µM
Cc1cn([C@H]2C=C[C@@H](CO)O2)c(=O)[nH]c1=O,48 µM
Cc1cn([C@H]2C=C[C@@H](CO[Si](C)(C)C(C)(C)C)O2)c(=O)n(CC(=O)O)c1=O,185 µM
Nc1ccc(S(N)(=O)=O)cc1SSc1cc(S(N)(=O)=O)ccc1N,>100 µM
COC(=O)CCn1c(=O)c(C)cn([C@@H]2O[C@H](CO[Si](C)(C)C(C)(C)C)[C@@H](O)[C@H]2O[Si](C)(C)C(C)(C)C)c1=O,19 µM
Cc1cn([C@H]2C=C[C@@H](COP3(=O)OCc4cc(CCC(=O)OCOC(=O)C(C)C)ccc4O3)O2)c(=O)[nH]c1=O,74 µM
COC(=O)c1cn([C@@H]2O[C@H](CO[Si](C)(C)C(C)(C)C)C3(OS(=O)(=O)C=C3N)[C@H]2O[Si](C)(C)C(C)(C)C)nn1,>0.18 µM
CCc1c(Sc2ccccn2)n(COCc2ccccc2)c(=O)[nH]c1=O,44 µM
CC(C)(C)[Si](C)(C)OCC1OC(n2nncc2C(=O)NC2CC2)C(O[Si](C)(C)C(C)(C)C)C12OS(=O)(=O)C=C2N,46 µM
Cc1cn([C@H]2C=C[C@@H](COP3(=O)OCc4cc(C=O)ccc4O3)O2)c(=O)[nH]c1=O,113 µM
Fc1cccc(F)c1C1SCc2nc3ccccc3n21,19 µM
CO[C@H]1N([C@H]2C[C@H](F)[C@@H](CO)O2)C(=O)NC(=O)[C@@]1(C)Cl,>800 µM
C=CCOC(C)=O,>1000 µM
COCc1cnnn1[C@@H]1O[C@H](CO[Si](C)(C)C(C)(C)C)C2(OS(=O)(=O)C=C2N)[C@H]1O[Si](C)(C)C(C)(C)C,>0.9 µM
CO[C@@H]1N([C@H]2C[C@H](F)[C@@H](CO)O2)C(=O)NC(=O)[C@@]1(C)I,12.2 µM
COCc1cn([C@@H]2O[C@H](CO[Si](C)(C)C(C)(C)C)C3(OS(=O)(=O)C=C3N)[C@H]2O[Si](C)(C)C(C)(C)C)nn1,>2.3 µM
COC(=O)[C@H](C)NP(=O)(OC[C@@H]1C=C[C@H](n2cc(C)c(=O)[nH]c2=O)O1)Oc1ccc(OC)cc1,>10 µM
Cc1cn([C@H]2C=C[C@@H](COP3(=O)OCc4cc(C=O)cc(C(C)(C)C)c4O3)O2)c(=O)[nH]c1=O,59 µM
Nc1ccn([C@H]2CC[C@@H](CO)O2)c(=O)n1,1.8 µM
CCCOCCCCCCCCCC(=O)O,116 µM
Cc1cn([C@H]2C=C[C@@H](COP3(=O)OCc4cc(CCC(=O)NC(C)C(=O)OC(C)(C)C)ccc4O3)O2)c(=O)[nH]c1=O,53 µM
Cc1cn([C@@H]2O[C@H](CO[Si](C)(C)C(C)(C)C)C3(OS(=O)(=O)C=C3N)[C@H]2O[Si](C)(C)C(C)(C)C)c(=O)n(C)c1=O,>82.8 µM
Cc1cc(S(=O)(=O)Nc2n[nH]c(Nc3ccccc3)n2)c(SSc2cc(Cl)c(C)cc2S(=O)(=O)Nc2n[nH]c(Nc3ccccc3)n2)cc1Cl,102.3 µM
Cc1cn([C@H]2C[C@H](N=[N+]=[N-])[C@@H](CO)O2)c(=O)[nH]c1=O,0.5 µM
CN[C@@H]1[C@H](O[C@@H]2OC[C@@H](O)[C@H](O)[C@H]2O)[C@@H](O)[C@H](O[C@H]2c3cc(C)c(C(=O)N[C@H](C)C(=O)O)c(O)c3-c3c(cc4c(c3O)C(=O)c3cc(OC)cc(O)c3C4=O)[C@@H]2O)O[C@@H]1C,>50 µg/mL
O=P(c1ccccc1)(c1ccccc1)c1ccccc1,40 µM
C=C(COCP(=O)(O)O)C(C)n1ccc(=O)[nH]c1=O,>100 µM
CC(=O)Oc1ccc(S)c(S(=O)(=O)Nc2n[nH]c(N)n2)c1,>200 µM
CCOCCCCCCCCCCC(=O)O,64 µM
Cc1cc2nc3nc(N)nc(NS(=O)(=O)c4cc(C)c(Cl)cc4S)n3c2cc1C,>200 µM
CC(C)NC(=O)c1cnnn1C1OC(CO[Si](C)(C)C(C)(C)C)C2(OS(=O)(=O)C=C2N)C1O[Si](C)(C)C(C)(C)C,>250 µM
CC(=O)c1cn([C@@H]2O[C@H](CO[Si](C)(C)C(C)(C)C)C3(OS(=O)(=O)C=C3N)[C@H]2O[Si](C)(C)C(C)(C)C)nn1,>1.1 µM
Nc1nc(=O)n([C@@H]2C=C[C@H](CO)O2)cc1F,7 µM
COC(=O)[C@@H]1CCCN1C(=O)CCc1ccc2c(c1)COP(=O)(OC[C@@H]1C=C[C@H](n3cc(C)c(=O)[nH]c3=O)O1)O2,182 µM
Cc1cn([C@H]2C[C@H](N=[N+]=[N-])[C@@H](CO)O2)c(=O)[nH]c1=O,500 µM
CC(C)(C)[Si](C)(C)OCC1OC(n2nncc2C(=O)NC2CCCC2)C(O[Si](C)(C)C(C)(C)C)C12OS(=O)(=O)C=C2N,≥250 µM
COC(=O)[C@H](C)NP(=O)(OC[C@H]1O[C@@H](n2cc(C)c(=O)[nH]c2=O)C[C@@H]1N=[N+]=[N-])Oc1ccc(Br)cc1,>10 µM
Cc1cn([C@@H]2O[C@H](CO[Si](C)(C)C(C)(C)C)[C@@H](O[Si](C)(C)C(C)(C)C)[C@H]2O)c(=O)n(CC(=O)ON)c1=O,8.8 µM
C=C(COCP(=O)(O)O)C(C)n1cnc2c(=O)[nH]c(N)nc21,98 µM
Nc1ccn([C@H]2CC[C@@H](CO)O2)c(=O)n1,10 µM
Cc1cn([C@H]2C=C[C@@H](CO)O2)c(=O)[nH]c1=O,60 µM
NC(=O)c1ncn([C@@H]2O[C@H](CO)[C@@H](O)[C@H]2O)n1,>300 µM
Cc1cn([C@H]2C[C@H](N=[N+]=[N-])[C@@H](CO[Si](C)(C)C(C)(C)C)O2)c(=O)n(CC(=O)O)c1=O,139 µM
CCn1c(=O)c(C)cn([C@@H]2O[C@H](CO[Si](C)(C)C(C)(C)C)C3(OS(=O)(=O)C=C3N)[C@H]2O[Si](C)(C)C(C)(C)C)c1=O,>80.9 µM
Nc1nc(=O)n([C@@H]2CC[C@H](CO)O2)cc1F,24 µM
Cc1cc(S(=O)(=O)Nc2nc(N)nc(N3N=CCC3C)n2)c(SCC(=O)O)cc1Cl,>200 µM
CC(C)(C)[Si](C)(C)OC[C@H]1O[C@@H](n2cc([Si](C)(C)C)nn2)[C@H](O[Si](C)(C)C(C)(C)C)C12OS(=O)(=O)C=C2N,>2.8 µM
Cc1cn([C@H]2C=C[C@@H](COP3(=O)OCc4cc(CCC(=O)O)ccc4O3)O2)c(=O)[nH]c1=O,74 µM
O=S(=O)(c1ccccc1)c1ccccc1,120 µM
Cc1cc(S(=O)(=O)Nc2nnc3c(Cl)cc(C(F)(F)F)cn23)c(S)cc1Cl,120 µM
O=C(O)P(=O)(O)O,800 µM
NC(=O)NO,<50 µM
Cc1ccnc2c1NC(=O)c1cccnc1N2C1CC1,>0.11 µM

Again, the opening 4 rows:

| structure | result |
|---|---|
| Cc1cn([C@H]2C[C@H](F)[C@@H](CO)O2)c(=O)[nH]c1=O | 54 µM |
| Nc1nc(=O)n([C@@H]2CS[C@H](CO)O2)cc1F | >100 µM |
| CC(C)(C)[Si](C)(C)OC[C@H]1O[C@@H](n2cnc3c(=O)n(CC(=O)O)cnc32)[C@H](O[Si](C)(C)C(C)(C)C)[C@@H]1O | ≥250 µM |
| C=CCOC(=O)CCC | 500 µM |